Results of unrelated studies side by side (data: NIAID ChemDB).

Common to all: growth or infection tests; agent: Aspergillus fumigatus; endpoint: MFC

Blank or dashed fields: not listed here. Conditions beyond the fields shown may differ between rows.

SMILES	strain or isolate	read by	value
O=c1oc2ccccc2c(O)c1C(c1c(O)c2ccccc2oc1=O)c1c[nH]c2ccccc12	-	agar diffusion / agar	>100 µg/mL
C=CCc1ccc(O)c(OC)c1	MTCC 2550	broth dilution	640 µg/mL
Cc1cc(NS(=O)(=O)c2ccc(N)cc2)no1	20 isolates	-	>320 µg/mL
Cc1nn(-c2ccccc2)c2c1C(c1c(O)c3ccccc3oc1=O)c1c(oc3ccccc3c1=O)O2	-	agar diffusion / agar	>100 µg/mL
CCOc1ccccc1O[C@@H](c1ccccc1)[C@@H]1CNCCO1	10 clinical isolates	-	500 µg/mL
N=C(N)c1ccc(OCCCCCOc2ccc(C(=N)N)cc2)cc1	20 isolates	-	>128 µg/mL
O=C/C=C/c1ccccc1	MTCC 2550	broth dilution	160 µg/mL
COc1cccc(CSC#N)c1	-	broth dilution	600 µg/mL
CCC(C)n1ncn(-c2ccc(N3CCN(c4ccc(OC[C@H]5CO[C@](Cn6cncn6)(c6ccc(Cl)cc6Cl)O5)cc4)CC3)cc2)c1=O	NFI 4001	-	>4 µg/mL
COc1ccc(CN=C=S)cc1	-	broth dilution	1 µg/mL
Nc1ccc(S(=O)(=O)Nc2ncccn2)cc1	20 isolates	-	>400 µg/mL
COc1ccc(CSC#N)cc1	-	broth dilution	300 µg/mL
Cc1noc(NS(=O)(=O)c2ccc(N)cc2)c1C	20 isolates	-	>400 µg/mL
C[C@H]1[C@H](O)[C@@H](C)/C=C/C=C/C=C/C=C/C=C/C=C/C=C/[C@H](O[C@@H]2O[C@H](C)[C@@H](O)[C@H](N)[C@@H]2O)C[C@@H]2O[C@](O)(C[C@@H](O)C[C@@H](O)CC[C@H](O)[C@@H](O)C[C@@H](O)CC(=O)O[C@H]1C)C[C@H](O)[C@H]2C(=O)O	NFI 0159	-	2 µg/mL
S=C=NCc1ccccc1	-	broth dilution	10 µg/mL

2 of the rows above, restated:

{"SMILES": "Cc1nn(-c2ccccc2)c2c1C(c1c(O)c3ccccc3oc1=O)c1c(oc3ccccc3c1=O)O2", "read by": "agar diffusion / agar", "value": ">100 µg/mL"}
{"SMILES": "CCOc1ccccc1O[C@@H](c1ccccc1)[C@@H]1CNCCO1", "strain or isolate": "10 clinical isolates", "value": "500 µg/mL"}